# According to patent US10874745B2, “Antimicrobial peptides and methods of treating gram-negative pathogens: polar and non-polar face analogs” (priority 2017, dated 2020):
# “And” between values parts separate entries of the source, which are not always exact repeats. Equal entries are not always repeated. Non-standard residues stand in square brackets, D forms with d. Residues, ends and D or L forms follow the SMILES beside them. *: point of attachment. MeO(CH2CH2O)23CH2CH2CO = COCCOCCOCCOCCOCCOCCOCCOCCOCCOCCOCCOCCOCCOCCOCCOCCOCCOCCOCCOCCOCCOCCOCCOCCC(=O)*; dDab = NCC[C@@H](N)C(=O)O; dDap = NC[C@@H](N)C(=O)O
# Test system: A. baumannii strains resistant to Polymyxin B and Colistin
# Type: cell-based
# Conditions: MICGM of 7 A. baumannii strains resistant to polymyxin B and colistin
row,SMILES,"TI, therapeutic index HC50/MICGM"
1,CC(=O)N[C@H](C)C(=O)N[C@H](CC(C)C)C(=O)N[C@H](CCCCN)C(=O)N[C@H](CCCCN)C(=O)N[C@H](CC(C)C)C(=O)N[C@H](CC(C)C)C(=O)N[C@H](CCCCN)C(=O)N[C@@H](C(=O)N[C@H](CC(C)C)C(=O)N[C@H](CO)C(=O)N[C@H](CCCCN)C(=O)N[C@H](C)C(=O)N[C@H](CCCCN)C(=O)N[C@H](C)C(=O)N[C@H](C)C(=O)N[C@H](CCCCN)C(=O)N[C@H](CC(C)C)C(=O)N[C@H](CCCCN)C(=O)N[C@@H](C(=O)N[C@H](CC(C)C)C(=O)N[C@H](CC(C)C)C(=O)N[C@H](CCCCN)C(=O)N[C@H](C)C(=O)N[C@H](CC(C)C)C(=O)N[C@H](CO)C(=O)N[C@H](CCCCN)C(N)=O)[C@H](C)O)[C@H](C)O [D41(Lys13/Lys16)],34.3
2,"CC(=O)N[C@H](CCCCN)C(=O)N[C@H](CC(C)C)C(=O)N[C@H](CCCCN)C(=O)N[C@H](CO)C(=O)N[C@H](CC(C)C)C(=O)N[C@H](CC(C)C)C(=O)N[C@H](CCCCN)C(=O)N[C@@H](C(=O)N[C@H](CC(C)C)C(=O)N[C@H](CO)C(=O)N[C@H](CCCCN)C(=O)N[C@H](C)C(=O)N[C@H](CCCCN)C(=O)N[C@H](C)C(=O)N[C@H](C)C(=O)N[C@H](CCCCN)C(=O)N[C@H](CC(C)C)C(=O)N[C@H](CCCCN)C(=O)N[C@@H](C(=O)N[C@H](CC(C)C)C(=O)N[C@H](CC(C)C)C(=O)N[C@H](CCCCN)C(=O)N[C@H](C)C(=O)N[C@H](CC(C)C)C(=O)N[C@H](CO)C(=O)N[C@H](CCCCN)C(N)=O)[C@H](C)O)[C@H](C)O [Peptide D84, Ac-KL(Lys)SLL(Lys)TLS(Lys)AKAAKL(Lys)TLL(Lys)ALS(Lys)-amide]",108.6
3,"CC(=O)N[C@H](CCCCN)C(=O)N[C@H](CC(C)C)C(=O)N[C@H](CCCN)C(=O)N[C@H](CO)C(=O)N[C@H](CC(C)C)C(=O)N[C@H](CC(C)C)C(=O)N[C@H](CCCN)C(=O)N[C@@H](C(=O)N[C@H](CC(C)C)C(=O)N[C@H](CO)C(=O)N[C@H](CCCN)C(=O)N[C@H](C)C(=O)N[C@H](CCCCN)C(=O)N[C@H](C)C(=O)N[C@H](C)C(=O)N[C@H](CCCCN)C(=O)N[C@H](CC(C)C)C(=O)N[C@H](CCCN)C(=O)N[C@@H](C(=O)N[C@H](CC(C)C)C(=O)N[C@H](CC(C)C)C(=O)N[C@H](CCCN)C(=O)N[C@H](C)C(=O)N[C@H](CC(C)C)C(=O)N[C@H](CO)C(=O)N[C@H](CCCN)C(N)=O)[C@H](C)O)[C@H](C)O [Peptide D85, Ac-KL(Orn)SLL(Orn)TLS(Orn)AKAAKL(Orn)TLL(Orn)ALS(Orn)-amide]",292.2
4,"CC(=O)N[C@H](CCCCN)C(=O)N[C@H](CC(C)C)C(=O)N[C@H](CCN)C(=O)N[C@H](CO)C(=O)N[C@H](CC(C)C)C(=O)N[C@H](CC(C)C)C(=O)N[C@H](CCN)C(=O)N[C@@H](C(=O)N[C@H](CC(C)C)C(=O)N[C@H](CO)C(=O)N[C@H](CCN)C(=O)N[C@H](C)C(=O)N[C@H](CCCCN)C(=O)N[C@H](C)C(=O)N[C@H](C)C(=O)N[C@H](CCCCN)C(=O)N[C@H](CC(C)C)C(=O)N[C@H](CCN)C(=O)N[C@@H](C(=O)N[C@H](CC(C)C)C(=O)N[C@H](CC(C)C)C(=O)N[C@H](CCN)C(=O)N[C@H](C)C(=O)N[C@H](CC(C)C)C(=O)N[C@H](CO)C(=O)N[C@H](CCN)C(N)=O)[C@H](C)O)[C@H](C)O [Peptide D86, Ac-KL(Dbu)SLL(Dbu)TLS(Dbu)AKAAKL(Dbu)TLL(Dbu)ALS(Dbu)-amide] (Ac-[dK][dL][dDab][dS][dL][dL][dDab][dT][dL][dS][dDab][dA][dK][dA][dA][dK][dL][dDab][dT][dL][dL][dDab][dA][dL][dS][dDab]-NH2)",> 742 and >741.5
5,"COCCOCCOCCOCCOCCOCCOCCOCCOCCOCCOCCOCCOCCOCCOCCOCCOCCOCCOCCOCCOCCOCCOCCOCCC(=O)N[C@H](CCCCN)C(=O)N[C@H](CC(C)C)C(=O)N[C@H](CCN)C(=O)N[C@H](CO)C(=O)N[C@H](CC(C)C)C(=O)N[C@H](CC(C)C)C(=O)N[C@H](CCN)C(=O)N[C@@H](C(=O)N[C@H](CC(C)C)C(=O)N[C@H](CO)C(=O)N[C@H](CCN)C(=O)N[C@H](C)C(=O)N[C@H](CCCCN)C(=O)N[C@H](C)C(=O)N[C@H](C)C(=O)N[C@H](CCCCN)C(=O)N[C@H](CC(C)C)C(=O)N[C@H](CCN)C(=O)N[C@@H](C(=O)N[C@H](CC(C)C)C(=O)N[C@H](CC(C)C)C(=O)N[C@H](CCN)C(=O)N[C@H](C)C(=O)N[C@H](CC(C)C)C(=O)N[C@H](CO)C(=O)N[C@H](CCN)C(N)=O)[C@H](C)O)[C@H](C)O [Peptide D86PEG1, m-dPEG24-D86] ({MeO(CH2CH2O)23CH2CH2CO}-[dK][dL][dDab][dS][dL][dL][dDab][dT][dL][dS][dDab][dA][dK][dA][dA][dK][dL][dDab][dT][dL][dL][dDab][dA][dL][dS][dDab]-NH2)",48.8
6,"CC(=O)N[C@H](CCCCN)C(=O)N[C@H](CC(C)C)C(=O)N[C@H](CCCCN)C(=O)N[C@H](CO)C(=O)N[C@H](CC(C)C)C(=O)N[C@H](CC(C)C)C(=O)N[C@H](CCCCN)C(=O)N[C@@H](C(=O)N[C@H](CC(C)C)C(=O)N[C@H](CO)C(=O)N[C@H](C)C(=O)N[C@H](C)C(=O)N[C@H](CCCCN)C(=O)N[C@H](CCCCN)C(=O)N[C@H](CCCCN)C(=O)N[C@H](CCCCN)C(=O)N[C@H](CC(C)C)C(=O)N[C@H](C)C(=O)N[C@@H](C(=O)N[C@H](CC(C)C)C(=O)N[C@H](CC(C)C)C(=O)N[C@H](CCCCN)C(=O)N[C@H](C)C(=O)N[C@H](CC(C)C)C(=O)N[C@H](CO)C(=O)N[C@H](CCCCN)C(N)=O)[C@H](C)O)[C@H](C)O [Peptide D88, Ac-KL(Lys)SLL(Lys)TLSAAK(Lys)(Lys)KLATLL(Lys)ALS(Lys)-amide] (Ac-[dK][dL][dK][dS][dL][dL][dK][dT][dL][dS][dA][dA][dK][dK][dK][dK][dL][dA][dT][dL][dL][dK][dA][dL][dS][dK]-NH2)",201.5
7,"CC(=O)N[C@H](CCCCN)C(=O)N[C@H](CC(C)C)C(=O)N[C@H](CCN)C(=O)N[C@H](CO)C(=O)N[C@H](CC(C)C)C(=O)N[C@H](CC(C)C)C(=O)N[C@H](CCN)C(=O)N[C@@H](C(=O)N[C@H](CC(C)C)C(=O)N[C@H](CO)C(=O)N[C@H](C)C(=O)N[C@H](C)C(=O)N[C@H](CCCCN)C(=O)N[C@H](CCN)C(=O)N[C@H](CCN)C(=O)N[C@H](CCCCN)C(=O)N[C@H](CC(C)C)C(=O)N[C@H](C)C(=O)N[C@@H](C(=O)N[C@H](CC(C)C)C(=O)N[C@H](CC(C)C)C(=O)N[C@H](CCN)C(=O)N[C@H](C)C(=O)N[C@H](CC(C)C)C(=O)N[C@H](CO)C(=O)N[C@H](CCN)C(N)=O)[C@H](C)O)[C@H](C)O [Peptide D89, Ac-KL(Dbu)SLL(Dbu)TLSAAK(Dbu)(Dbu)KLATLL(Dbu)ALS(Dbu)-amide] (Ac-[dK][dL][dDab][dS][dL][dL][dDab][dT][dL][dS][dA][dA][dK][dDab][dDab][dK][dL][dA][dT][dL][dL][dDab][dA][dL][dS][dDab]-NH2)",>1588.9
8,"CC(=O)N[C@H](CCCCN)C(=O)N[C@H](CC(C)C)C(=O)N[C@H](CN)C(=O)N[C@H](CO)C(=O)N[C@H](CC(C)C)C(=O)N[C@H](CC(C)C)C(=O)N[C@H](CN)C(=O)N[C@@H](C(=O)N[C@H](CC(C)C)C(=O)N[C@H](CO)C(=O)N[C@H](CN)C(=O)N[C@H](C)C(=O)N[C@H](CCCCN)C(=O)N[C@H](C)C(=O)N[C@H](C)C(=O)N[C@H](CCCCN)C(=O)N[C@H](CC(C)C)C(=O)N[C@H](CN)C(=O)N[C@@H](C(=O)N[C@H](CC(C)C)C(=O)N[C@H](CC(C)C)C(=O)N[C@H](CN)C(=O)N[C@H](C)C(=O)N[C@H](CC(C)C)C(=O)N[C@H](CO)C(=O)N[C@H](CN)C(N)=O)[C@H](C)O)[C@H](C)O [Peptide D105, Ac-KL(Dpr)SLL(Dpr)TLS(Dpr)AKAAKL(Dpr)TLL(Dpr)ALS(Dpr)-amide]",> 957 and >956.7
9,"CC(=O)N[C@H](CCCCN)C(=O)N[C@H](CC(C)C)C(=O)N[C@H](CN)C(=O)N[C@H](CO)C(=O)N[C@H](CC(C)C)C(=O)N[C@H](CC(C)C)C(=O)N[C@H](CN)C(=O)N[C@@H](C(=O)N[C@H](CC(C)C)C(=O)N[C@H](CO)C(=O)N[C@H](C)C(=O)N[C@H](C)C(=O)N[C@H](CCCCN)C(=O)N[C@H](CN)C(=O)N[C@H](CN)C(=O)N[C@H](CCCCN)C(=O)N[C@H](CC(C)C)C(=O)N[C@H](C)C(=O)N[C@@H](C(=O)N[C@H](CC(C)C)C(=O)N[C@H](CC(C)C)C(=O)N[C@H](CN)C(=O)N[C@H](C)C(=O)N[C@H](CC(C)C)C(=O)N[C@H](CO)C(=O)N[C@H](CN)C(N)=O)[C@H](C)O)[C@H](C)O [Peptide D106, Ac-KL(Dpr)SLL(Dpr)TLSAAK(Dpr)(Dpr)KLATLL(Dpr)ALs(Dpr)-amide] (Ac-[dK][dL][dDap][dS][dL][dL][dDap][dT][dL][dS][dA][dA][dK][dDap][dDap][dK][dL][dA][dT][dL][dL][dDap][dA][dL][dS][dDap]-NH2)",425.3

# Same assay, conditions: MICGM of 7 A. baumannii strains resistant to polymyxin B and colistin; listed as D89 (6 Dbu-2)
row,SMILES,"TI, therapeutic index HC50/MICGM"
1,"CC(=O)N[C@H](CCCCN)C(=O)N[C@H](CC(C)C)C(=O)N[C@H](CCN)C(=O)N[C@H](CO)C(=O)N[C@H](CC(C)C)C(=O)N[C@H](CC(C)C)C(=O)N[C@H](CCN)C(=O)N[C@@H](C(=O)N[C@H](CC(C)C)C(=O)N[C@H](CO)C(=O)N[C@H](C)C(=O)N[C@H](C)C(=O)N[C@H](CCCCN)C(=O)N[C@H](CCN)C(=O)N[C@H](CCN)C(=O)N[C@H](CCCCN)C(=O)N[C@H](CC(C)C)C(=O)N[C@H](C)C(=O)N[C@@H](C(=O)N[C@H](CC(C)C)C(=O)N[C@H](CC(C)C)C(=O)N[C@H](CCN)C(=O)N[C@H](C)C(=O)N[C@H](CC(C)C)C(=O)N[C@H](CO)C(=O)N[C@H](CCN)C(N)=O)[C@H](C)O)[C@H](C)O [Peptide D89, Ac-KL(Dbu)SLL(Dbu)TLSAAK(Dbu)(Dbu)KLATLL(Dbu)ALS(Dbu)-amide] (Ac-[dK][dL][dDab][dS][dL][dL][dDab][dT][dL][dS][dA][dA][dK][dDab][dDab][dK][dL][dA][dT][dL][dL][dDab][dA][dL][dS][dDab]-NH2)",>1589
